Laboratory results published in paper PMC8876114, “Cytotoxicity and anti-HIV activities of extracts of the twigs of Croton dichogamus Pax” (BMC Complementary Medicine and Therapies, 2022).

System: HIV-1IIIB laboratory-adapted strain
Assay: Anti-HIV activity test: prevention of HIV-1 cytopathic effect in MT-4 cells (MTT)
Type: cell-based, Human immunodeficiency virus type 1
Conditions: ratio of CC50 to IC50, MT-4 cells
Procedure: Human immunodeficiency virus type 1 (HIV-1) IIIB (also referred to as HTLV-IIIB) was obtained through the NIH HIV Reagent Program, Division of AIDS, NIAID, NIH: Human Immunodeficiency Virus-1 IIIB, ARP-398, contributed by Dr. Robert Gallo. The effects of the test compounds in preventing the cytopathic effect resulting from HIV-1 replication were evaluated by the MTT colorimetric assay described above.
The laboratory-adapted strain of human immunodeficiency virus type 1 (HIV-1IIIB) obtained from the National Institutes of Health HIV Reagent Program was used in this experiment. A total of 50 µl of different concentrations ([…]) of the test compounds were seeded into 96-well flat-bottomed microtiter culture plates containing HIV-infected MT-4 cells.

C[C@H](Cn1cnc2c(N)ncnc21)OCP(=O)(O)O [TDF, tenofovir]
SI (selectivity index): 176.5
